The values that follow come from patent publication US5858687A (priority 1995, dated 1999).

Data set [1] has as its system Neuro-2a cells. Put plainly: Suspension-cell tube assay (Neuro-2a in agar, methylene blue decolorization).
For data set [2], the system named is human neuroblastoma SK-N-MC. Put plainly: Cell bioassay in human neuroblastoma SK-N-MC cells. To be noted: FIG. 9A.
Data set [3] relates to Mouse neuroblastoma cells Neuro-2a.

In the case of CTX3C, the “amount detected in suspension-cell tube assay” value in data set [1] (4 hour, ouabain/veratridine present, FIG. 15) was 0.15 ng. For the same substance, the “methylene blue decolorization in the presence of ouabain and veratridine” value in data set [1] (tube A, 4 hours) is listed as “inhibited decolorization of methylene blue”. The “methylene blue decolorization in the absence of ouabain/veratridine” value in data set [1] (tube B) is listed as “lack of effect”. Also, in data set [2], the “cytotoxicity in the presence of ouabain and veratridine” value is given as “dose-dependant cytotoxicity”.
For brevetoxin PbTx-1, the “cytotoxicity in the absence of ouabain/veratridine” value in data set [3] (no ouabain/veratridine, highest concentration 10 ng/10 μl, 18 hours exposure, FIG. 4B) was “not cytotoxic”. In data set [3] (ouabain/veratridine present, 18 hours), the “cytotoxicity at 18 hours” value is on record as “essentially total”. Further, the “earliest time at which titratable cytotoxicity was observed” value in data set [3] (ouabain/veratridine present, FIG. 4A) was 4 h. Also, the “ID50 7 HR” value in data set [3] (positive control, 7 hr, three runs) turned out to be 0.9 ng. The “ID90 22 HR” value in data set [3] (positive control, 22 hr, three runs) turned out to be 0.8 ng.
